Results as given in article PMC8008340.

Target: WT RBD (Wuhan SARS-CoV-2 RBD) (SARS-CoV-2) (UniProt P0DTC2)
Assay: BLI

| Substance | Kd [nM] |
| --- | --- |
| AZD8895 | 2.18 |
| AZD1061 | 5.13 |
